Test results reported in patent US6818219B1, “Reagent for detecting and monitoring viral infections” (Institut Pasteur de Lille, priority 1997, dated 2004).
Where “and” joins values, the source holds several entries; their conditions need not be identical. Equal values may be shown once.

Tests used:
Assay type in all cases: binding
anti-VCA human IgG-A-Ms = test: ELISA with antigen in solid phase, human sera, anti-human IgG-A-M conjugate; settings: Ig(G-A-M); for Specificity: 28 EBV-negative sera
anti-VCA human IgAs = test: Isotype-specific ELISA with antigen in solid phase, anti-human IgA conjugate; settings: for Specificity: 28 EBV-negative sera; for Sensitivity: 40 sera of primary-infected patients (P)
anti-VCA human IgGs = test: Isotype-specific ELISA with antigen in solid phase, anti-human IgG conjugate; settings: for Specificity: 28 EBV-negative sera; for Sensitivity: 40 sera of primary-infected patients (P)

CAVDTGSGGGGQPHDTAPRGARKKQ [VCAp18/SEQ ID No. 2]
Specificity (anti-VCA human IgG-A-Ms; coating 0.1 μg/well): 100%
Sensitivity (anti-VCA human IgG-A-Ms; coating 0.1 μg/well, 40 sera of primary-infected patients (P)): 60%
Sensitivity (anti-VCA human IgG-A-Ms; coating 0.1 μg/well, 46 EBV-positive sera (L, healthy carriers)): 89% and 51% and 91%
Sensitivity (anti-VCA human IgG-A-Ms; coating 0.1 μg/well, 46 EBV-positive sera (L, healthy carriers), listed as SEQ ID No. 2): 91%
Specificity (anti-VCA human IgG-A-Ms; coating 1 μg/well): 89% and 78%
Specificity (anti-VCA human IgG-A-Ms; coating 1 μg/well, listed as SEQ ID No. 2): 89%
Sensitivity (anti-VCA human IgG-A-Ms; coating 1 μg/well, 40 sera of primary-infected patients (P)): 85%
Sensitivity (anti-VCA human IgG-A-Ms; coating 1 μg/well, 46 EBV-positive sera (L, healthy carriers)): 95%
Specificity (anti-VCA human IgAs; coating 0.1 μg/well): 100%
Sensitivity (anti-VCA human IgAs; coating 0.1 μg/well): 62%
Specificity (anti-VCA human IgAs; coating 1 μg/well): 100%
Sensitivity (anti-VCA human IgAs; coating 1 μg/well): 72%
Specificity (anti-VCA human IgGs; coating 0.1 μg/well): 100%
Sensitivity (anti-VCA human IgGs; coating 0.1 μg/well): 32%
Specificity (anti-VCA human IgGs; coating 1 μg/well): 96%
Sensitivity (anti-VCA human IgGs; coating 1 μg/well): 60%
